In patent US12365912 (UNIVERSITY OF FLORIDA RESEARCH FOUNDATION, dated 2025):

Tests used:
[1] = biological target: T1, Red chlorophyll catabolite reductase (Citrus sinensis); assay: yeast two-hybrid
T1 chain: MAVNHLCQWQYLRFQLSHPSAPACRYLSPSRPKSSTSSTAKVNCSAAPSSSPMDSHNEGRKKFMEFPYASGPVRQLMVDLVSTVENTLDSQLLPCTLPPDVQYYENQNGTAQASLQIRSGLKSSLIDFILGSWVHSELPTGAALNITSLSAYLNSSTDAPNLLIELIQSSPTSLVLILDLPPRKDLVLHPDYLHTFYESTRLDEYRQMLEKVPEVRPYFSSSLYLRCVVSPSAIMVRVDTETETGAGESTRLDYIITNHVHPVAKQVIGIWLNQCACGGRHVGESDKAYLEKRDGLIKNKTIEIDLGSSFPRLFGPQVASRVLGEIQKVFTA

[2] = biological target: T2, PP2-B2/12 (orange1.1t04174) (Citrus sinensis); assay: yeast two-hybrid
T2 chain: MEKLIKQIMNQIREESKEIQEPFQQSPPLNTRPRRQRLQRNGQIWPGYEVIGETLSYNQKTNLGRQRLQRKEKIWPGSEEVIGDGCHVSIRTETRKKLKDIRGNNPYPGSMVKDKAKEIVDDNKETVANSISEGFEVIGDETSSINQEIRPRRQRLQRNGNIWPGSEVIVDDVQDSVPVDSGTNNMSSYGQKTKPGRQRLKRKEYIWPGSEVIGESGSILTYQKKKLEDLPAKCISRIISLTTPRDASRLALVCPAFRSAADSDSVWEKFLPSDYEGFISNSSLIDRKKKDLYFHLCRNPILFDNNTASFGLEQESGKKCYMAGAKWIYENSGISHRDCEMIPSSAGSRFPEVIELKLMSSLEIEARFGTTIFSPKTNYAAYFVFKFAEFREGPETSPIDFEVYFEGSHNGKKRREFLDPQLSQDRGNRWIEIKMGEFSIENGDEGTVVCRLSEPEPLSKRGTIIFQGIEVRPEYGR

B1:  (other)
chain: DTLSDSKQHNKINNTKNHLDLLFPIDDSHNQKPTEKKPNTSSIKIKNNIIEPQPGPSRWEGGWNGERYVREWER
- binding result [1]: binds
- binding result [2]: binds
